In assay [1] the target is recombinant hemagglutinin (HA) trimer of H7N9 A/Anhui/1-BALF_RG17/2013, ectodomain (influenza A virus A/Anhui/1-BALF_RG17/2013 (H7N9)). Briefly: ELISA. For orientation: ELISA stands for enzyme-linked immunosorbent assay.
Assay [2] concerns the target H5N1 VN/04 HA trimer expressed on the surface of 293 T cells (influenza A virus A/Vietnam/1203/2004 (H5N1)) (UniProt Q6DQ33). As to the kind of experiment: FACS.

Broadly, the EC50 is the concentration giving half of the maximal effect.

In the case of CR8020, the EC50 in assay [1] turned out to be 0.069 µg/mL.
Consider F10, for which the EC50 in assay [2] was determined as 0.59 µg/mL.
The substance FI6V3 registered an EC50 in assay [2] of 0.61 µg/mL.

The record behind these values is publication PMC5663709.
